Test results as given in patent US5891661A, “Low temperature assay for active HCMV protease in dimeric form” (Merck & Co., Inc., priority 1997, dated 1999).

Test system: HCMV protease
Assay: Size exclusion chromatography, monomer-dimer equilibrium
Assay type: binding, human cytomegalovirus

HCMV protease: N-terminal 256 amino acid protease domain of HCMV strain AD169, recombinantly expressed in E. coli
maximum fraction of dimeric protease (extrapolated from fit, FIG. 2) (20% glycerol, 30° C.): 0.92 | maximum fraction of dimeric protease (loading concentration of 100 mM, separate experiments): ≥ 0.95
